Data on six substances can be found in article PMC2887854.

For the experiment, the target named is protective antigen (PA83, 83 kDa), monomeric (Bacillus anthracis).
As to “TEM8 vWA domain (38-220) M1 (L56A and H57N), C177A (from UniProt Q9H6X2-1 38-220)”, the Kd was 5.25 nM, the koff came to 4.46e-05 s⁻¹ and the kon came out at 8660 M⁻¹ s⁻¹.

In turn, “TEM8 vWA domain (38-220) R88Q, C177A (from UniProt Q9H6X2-1 38-220)” showed a Kd of 167 nM, a koff of 0.000621 s⁻¹ and an association rate constant (kon) of 3730 M⁻¹ s⁻¹.

“TEM8 vWA domain (38-220) K51A, C177A (from UniProt Q9H6X2-1 38-220)”: the equilibrium dissociation constant (Kd) was determined as 58100 nM, the koff is 0.00527 s⁻¹ and the kon came out at 93.6 M⁻¹ s⁻¹.

Consider “TEM8 extracellular vWA domain (residues 38-220) with the C177A mutation, called WT (from UniProt Q9H6X2-1 38-220)”, for which the Kd amounted to 29.8 nM, the koff is 0.00014 s⁻¹ and the kon is 5460 M⁻¹ s⁻¹.

The substance “TEM8 vWA domain (38-220) T87S, C177A (from UniProt Q9H6X2-1 38-220)” showed a dissociation constant (Kd) of 49.7 nM, a koff of 0.000259 s⁻¹ and a kon of 6110 M⁻¹ s⁻¹.

In turn, “TEM8 vWA domain (38-220) L56A, C177A (from UniProt Q9H6X2-1 38-220)” yielded a Kd of 4.44 nM, a koff of 6.6e-05 s⁻¹ and a kon of 14900 M⁻¹ s⁻¹.

As usually defined, the Kd is the equilibrium constant for the complex coming apart. For orientation: koff means the first-order rate constant of dissociation. A lower koff goes with slow dissociation. The kon is the second-order rate constant of association. A higher kon goes with faster complex formation.
